Assay results: patent US10751301B2, “Methods for inhibiting conversion of choline to trimethylamine (TMA)” (The Procter & Gamble Company, priority 2017, dated 2020)

Tests used:
[1] = test system: Proteus mirabilis 29906 (Pm) lysate; assay: Inhibition of formation of TMA from choline in Proteus mirabilis lysate (Example 2); type: biochemical; conditions: read-out: TMA Inhibition (IC50, mol/L); Pm lysate 1.5 mg/mL protein, 50 μM d9-choline chloride, 37° C. two hours
[2] = test system: whole cell wild-type P. mirabilis; assay: Inhibition of conversion of choline to TMA by whole cell wild-type P. mirabilis (Example 5); type: cell-based; conditions: read-out: EC50 (mol/L) whole cell wild-type P. mirabilis
[3] = biological target: recombinant P. mirabilis Cut C/D lysate (Proteus mirabilis, UniProt B4EYG1); conditions: read-out: IC50 (mol/L) recombinant P. mirabilis Cut C/D lysate

Work on `C[S+](CCO)CCCCl` (stereo not drawn) yielded an IC50 [1] of 1.32 µM, an EC50 [2] of 0.0005 mol/L and an IC50 [3] of 5.2 µM.
